Results deposited as PubChem BioAssay AID1259414 (Drosophila RNAi Screening Center, 2018)

Assay: 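Genome-wide screen for host control of endosymbiont load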 (primary screen)
System: Drosophila JW18 cells infected with Wolbachia
Knock-down reagent: long dsRNA against Drosophila genes, 0.25 µg dsRNA per well of a 384-well plate
Time to read-out: 5 days
Treatment: cells persistently infected with Wolbachia before knock-down; no added drug
Measured: 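Automated imaging of bacterial rRNA staining divided by host cell count, reported as plate-normalised robust z-score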
Reading the numbers: Wolbachia per cell robust z: higher = more Wolbachia per host cell than the plate typical
Call rule: 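Active if absolute robust z reaches 1.5 in two or more of three replicates, leaving out multi- or no-target dsRNAs, genes unexpressed in JW18 and A1 wells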
The screen tested about 24,000 reagents; shown is a random part of those that have a named target and a result. Over the whole deposit, about 1,210 (5%) got an active call. 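Inactive calls also include excluded dsRNAs with several or no targets, genes unexpressed in JW18, and well A1, regardless of score.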 Entries without a mark were called inactive.

With Cht12 [DRSC03844], what does the deposit list?
Wolbachia per cell robust z, rep 1: 0.762; Wolbachia per cell robust z, rep 2: -2.75; Wolbachia per cell robust z, rep 3: 0.149

How did the screen score CG6980 [DRSC16162]?
Wolbachia per cell robust z, rep 1: -1.06; Wolbachia per cell robust z, rep 2: 0.0489; Wolbachia per cell robust z, rep 3: -0.0763

What is on record for CG6980 [DRSC29355]?
Wolbachia per cell robust z, rep 1: 0.764; Wolbachia per cell robust z, rep 2: -4.45; Wolbachia per cell robust z, rep 3: 1.05

How did the screen score CG14480 [DRSC06452]?
Wolbachia per cell robust z, rep 1: -1.66 (active); Wolbachia per cell robust z, rep 2: 0.395; Wolbachia per cell robust z, rep 3: -1.78

With Mmp1 [DRSC04493], what does the deposit list?
Wolbachia per cell robust z, rep 1: 0.658; Wolbachia per cell robust z, rep 2: 1.17; Wolbachia per cell robust z, rep 3: 0.709

For CG9705 [DRSC11094], what was measured?
Wolbachia per cell robust z, rep 1: -1.05; Wolbachia per cell robust z, rep 2: 0.599; Wolbachia per cell robust z, rep 3: 0.791

What did the screen give for c12.2 [DRSC18751]?
Wolbachia per cell robust z, rep 1: -0.326; Wolbachia per cell robust z, rep 2: 0.76; Wolbachia per cell robust z, rep 3: 0.74

With c12.2 [DRSC26390], how do the results read?
Wolbachia per cell robust z, rep 1: 1.6; Wolbachia per cell robust z, rep 2: 1.44; Wolbachia per cell robust z, rep 3: 0.449

With CG34445 [DRSC22404], what does the deposit list?
Wolbachia per cell robust z, rep 1: 1.08; Wolbachia per cell robust z, rep 2: 0.0116; Wolbachia per cell robust z, rep 3: -0.329

For CG34445 [DRSC41474], what was measured?
Wolbachia per cell robust z, rep 1: -0.484; Wolbachia per cell robust z, rep 2: 0.553; Wolbachia per cell robust z, rep 3: -1.81

With CG10934 [DRSC06017], what does the deposit list?
Wolbachia per cell robust z, rep 1: 0.931; Wolbachia per cell robust z, rep 2: -0.0669; Wolbachia per cell robust z, rep 3: -0.136

How did the screen score sog [DRSC20379]?
Wolbachia per cell robust z, rep 1: 0.154; Wolbachia per cell robust z, rep 2: 0.719; Wolbachia per cell robust z, rep 3: -0.0713

With CG2082 [DRSC12125], what does the deposit list?
Wolbachia per cell robust z, rep 1: -2.15; Wolbachia per cell robust z, rep 2: -0.548; Wolbachia per cell robust z, rep 3: 0.345

How did the screen score CG2082 [DRSC26456]?
Wolbachia per cell robust z, rep 1: 0.628; Wolbachia per cell robust z, rep 2: 0.511; Wolbachia per cell robust z, rep 3: -1.33

For obst-H [DRSC10935], what does the deposit list?
Wolbachia per cell robust z, rep 1: -0.789; Wolbachia per cell robust z, rep 2: 2.07; Wolbachia per cell robust z, rep 3: -1.41

How did the screen score obst-H [DRSC10940]?
Wolbachia per cell robust z, rep 1: 0.0669; Wolbachia per cell robust z, rep 2: -0.468; Wolbachia per cell robust z, rep 3: 0.398

With CG6052 [DRSC10574], what was measured?
Wolbachia per cell robust z, rep 1: 0.517; Wolbachia per cell robust z, rep 2: -0.167; Wolbachia per cell robust z, rep 3: -0.252

With Dna2 [DRSC18254], what was measured?
Wolbachia per cell robust z, rep 1: -0.329; Wolbachia per cell robust z, rep 2: -0.207; Wolbachia per cell robust z, rep 3: 0.511

Called active, of those listed so far:
CG14480 [DRSC06452]: Wolbachia per cell robust z, rep 1 = -1.66 (active); Wolbachia per cell robust z, rep 2 = 0.395; Wolbachia per cell robust z, rep 3 = -1.78

The results go on:
Which result is listed for Prosbeta2R1 [DRSC18154]?
Wolbachia per cell robust z, rep 1: 0.492; Wolbachia per cell robust z, rep 2: 1.43; Wolbachia per cell robust z, rep 3: 0.598

What is on record for CG13501 [DRSC04146]?
Wolbachia per cell robust z, rep 1: 0.395; Wolbachia per cell robust z, rep 2: 0.622; Wolbachia per cell robust z, rep 3: 0.298

With CCDC151 [DRSC10131], how do the results read?
Wolbachia per cell robust z, rep 1: -3.63; Wolbachia per cell robust z, rep 2: 0.998; Wolbachia per cell robust z, rep 3: -1.04

What is on record for CCDC151 [DRSC27319]?
Wolbachia per cell robust z, rep 1: 0.349; Wolbachia per cell robust z, rep 2: -1.35; Wolbachia per cell robust z, rep 3: -0.065

How did the screen score CG42752 [DRSC41391]?
Wolbachia per cell robust z, rep 1: -2.51; Wolbachia per cell robust z, rep 2: 0.36; Wolbachia per cell robust z, rep 3: -0.014

For p38c [DRSC22939], how do the results read?
Wolbachia per cell robust z, rep 1: -0.905; Wolbachia per cell robust z, rep 2: -0.827; Wolbachia per cell robust z, rep 3: -0.378

For CG34195 [DRSC06909], what does the deposit list?
Wolbachia per cell robust z, rep 1: 0.349; Wolbachia per cell robust z, rep 2: 0.591; Wolbachia per cell robust z, rep 3: 0.51

For CG31949 [DRSC00110], how do the results read?
Wolbachia per cell robust z, rep 1: -0.441; Wolbachia per cell robust z, rep 2: -0.423; Wolbachia per cell robust z, rep 3: -0.944

For D [DRSC11132], what does the deposit list?
Wolbachia per cell robust z, rep 1: -1.07; Wolbachia per cell robust z, rep 2: 0.942; Wolbachia per cell robust z, rep 3: -0.29

What did the screen give for D [DRSC25367]?
Wolbachia per cell robust z, rep 1: -1.13; Wolbachia per cell robust z, rep 2: 0.677; Wolbachia per cell robust z, rep 3: -2.06

What did the screen give for Lac [DRSC07452]?
Wolbachia per cell robust z, rep 1: 0.827; Wolbachia per cell robust z, rep 2: 0.646; Wolbachia per cell robust z, rep 3: -0.733

What did the screen give for Tsen54 [DRSC10527]?
Wolbachia per cell robust z, rep 1: -2.07; Wolbachia per cell robust z, rep 2: -0.964; Wolbachia per cell robust z, rep 3: 0.362

With Tsen54 [DRSC27583], what was measured?
Wolbachia per cell robust z, rep 1: -0.758; Wolbachia per cell robust z, rep 2: -0.00484; Wolbachia per cell robust z, rep 3: -0.844

What did the screen give for Tsen54 [DRSC41601]?
Wolbachia per cell robust z, rep 1: -0.43; Wolbachia per cell robust z, rep 2: -2.39; Wolbachia per cell robust z, rep 3: -0.554
